Laboratory results: the NIST ThermoML archive (doi:10.1016/j.jct.2013.10.018)

Assay: xn = mol fraction of the nth substance listed
Conditions: 101 kPa, Liquid; for speed of sound: Sing-around technique in a fixed-path interferometer; for mass density: Vibrating tube method

CCCCOP(=O)(OCCCC)OCCCC [tributyl phosphate] + CCCCCCCCCCO
Conditions | mass density, 313.15 K [kg/m3] | mass density, 318.15 K [kg/m3] | mass density, 323.15 K [kg/m3] | speed of sound, 313.15 K [m/s] | speed of sound, 318.15 K [m/s] | speed of sound, 323.15 K [m/s]
x1 = 0.019 | 819.63 | 816.14 | 812.64 | 1324 | 1307 | 1291
x1 = 0.04 | 823.54 | 820.04 | 816.52 | 1319 | 1303 | 1286
x1 = 0.063 | 827.64 | 824.12 | 820.57 | 1314 | 1298 | 1281
x1 = 0.099 | 834.29 | 830.73 | 827.14 | 1307 | 1291 | 1274
x1 = 0.2 | 851.83 | 848.15 | 844.46 | 1289 | 1273 | 1256
x1 = 0.292 | 866.71 | 862.93 | 859.14 | 1275 | 1258 | 1242
x1 = 0.398 | 882.96 | 879.09 | 875.2 | 1260 | 1244 | 1227
x1 = 0.501 | 897.74 | 893.8 | 889.85 | 1248 | 1231 | 1215
x1 = 0.599 | 911.39 | 907.35 | 903.31 | 1239 | 1223 | 1206
x1 = 0.703 | 924.84 | 920.73 | 916.62 | 1231 | 1214 | 1198
x1 = 0.803 | 937.19 | 933.01 | 928.83 | 1224 | 1207 | 1191
x1 = 0.904 | 949.17 | 944.91 | 940.66 | 1219 | 1202 | 1186
x1 = 0.92 | 950.94 | 946.68 | 942.42 | 1218 | 1201 | 1185
x1 = 0.946 | 953.89 | 949.62 | 945.33 | 1216 | 1200 | 1183
x1 = 0.973 | 956.92 | 952.63 | 948.33 | 1215 | 1199 | 1182
x1 = 1 | – | – | – | 1214 | 1198 | 1181
